In paper PMC4140803 (PLoS ONE, 2014):

Test system: HIV-1LAI-M184V
Experiment: microbe, parasite or virus in culture
Type: cell-based
Settings: for FC, fold change, the ratio of EC50(Mut)/EC50(WT): HIV-1LAI-M184V vs wild type HIV-1IIIB; for EC50: Human immunodeficiency virus 1, C8166, HIV-1LAI-M184V

Structure (SMILES) | FC, fold change, the ratio of EC50(Mut)/EC50(WT) | EC50 [nM]
[N-]=[N+]=N[C@]1(CO)O[C@@H](n2ccc(N)nc2=O)[C@@H](F)[C@@H]1O [FNC, 2′-deoxy-2′-β-fluoro-4′-azidocytidine] | 250 | 27.4 ± 2.85
Cc1cn([C@H]2C[C@H](N=[N+]=[N-])[C@@H](CO)O2)c(=O)[nH]c1=O [AZT, zidovudine] | 0.87 | 
Nc1ccn([C@@H]2CS[C@H](CO)O2)c(=O)n1 [3TC, lamivudine, reference compound] |  | > 800000
